A mixed list of measured activities; the numbers were collected in NIAID ChemDB.

All rows: whole-cell or culture tests; agent: Candida albicans

A number after MIC or MFC names an inhibition level or a share of isolates. Blank or dashed fields: not listed here. Lines come from different laboratories, so protocols vary.

structure,read by,measure,strain or isolate,value
CN(CCCC#CC(C)(C)C)c1cccc2c1CCC(=O)N2,,MIC,Clinical isolate 7,31.25 µg/mL
CC(=O)N[C@H]1CCCNC(=O)[C@@H]2C[C@H](N)CN2C(=O)[C@H]([C@@H](C)O)NC(=O)[C@H](CCc2ccc(O)cc2)NC(=O)[C@@H]2C[C@@H](O)CN2C(=O)[C@H]([C@@H](C)O)NC1=O,,MIC,ATCC 62376,>100 µg/mL
Cc1ccc(C(c2cccc3ccccc23)n2ccnc2)cc1,,Mean MIC,23 strains,12.4 µg/mL
Cc1c(S(=O)(=O)c2ccccc2)[n+](=O)c2cc(Cl)ccc2n1[O-],,MIC,Clinical isolate 17,31.25 µg/mL
CCCCCCCCCCCn1cc[n+](COCCCCCOC[n+]2ccn(CCCCCCCCCCC)c2)c1,agar diffusion,MIC100,ATCC 90028,4 µM
Clc1ccc(C(c2cccc3ccccc23)n2ccnc2)s1,,MIC50,23 strains,2 µg/mL
CCCCCOc1ccc(-c2ccc(-c3ccc(C(=O)N[C@H]4CCCNC(=O)[C@@H]5C[C@H](N)CN5C(=O)[C@H](CC)NC(=O)C(CCc5ccc(O)cc5)NC(=O)[C@@H]5C[C@@H](O)CN5C(=O)[C@H]([C@@H](C)O)NC4=O)cc3)cc2)cc1,,MIC,ATCC 38247,0.39 µg/mL
c1ccc(CO/N=C2/c3ccccc3OCC2n2cncn2)cc1,,MIC,ATCC 10231,64 µg/mL
NC(=NC1CCCC1)c1ccc(-c2ccc(-c3ccc(C(N)=NC4CCCC4)cc3)o2)cc1,,MIC,Isolate 1 (strain 2-76),12.5 µg/mL
Clc1ccc(C(Cn2ccnc2)OCc2ccc(-c3ccccc3)cc2)c(Cl)c1,,MIC,Y0109,128 µg/mL
Clc1ccc(C(c2ccc3ccccc3c2)n2ccnc2)cc1,,Mean MIC,23 strains,7.13 µg/mL
C[C@H]1[C@H](O)[C@@H](C)/C=C/C=C/C=C/C=C/C=C/C=C/C=C/[C@H](O[C@@H]2O[C@H](C)[C@@H](O)[C@H](N)[C@@H]2O)C[C@@H]2O[C@](O)(C[C@@H](O)C[C@@H](O)CC[C@H](O)[C@@H](O)C[C@@H](O)CC(=O)O[C@H]1C)C[C@H](O)[C@H]2C(=O)O,,MIC50,16 isolates fluconazole-susceptible,0.125 µg/mL
CCCCCOc1ccc(-c2ccc(-c3ccc(C(=O)N[C@H]4CCCNC(=O)[C@@H]5C[C@H](NCc6ccccc6)CN5C(=O)[C@H]([C@@H](C)O)NC(=O)[C@H](CCc5ccc(O)cc5)NC(=O)[C@@H]5C[C@@H](O)CN5C(=O)[C@H]([C@@H](C)O)NC4=O)cc3)cc2)cc1,,MIC,ATCC 38247,6.25 µg/mL
CCCCn1cc[n+](COCCOC[n+]2ccn(CCCC)c2)c1,agar diffusion,MIC100,ATCC 90028,1634 µM
O=C1/C(=C/c2ccc3c(c2)OCO3)CSc2ccccc21,,MIC,,6 µg/mL
CCOc1cc2c(cc1F)n([O-])c(C)c(S(=O)(=O)c1ccccc1)[n+]2=O,,MIC,Clinical isolate 18,7.8 µg/mL
C[C@@H](N1CCN(Cc2cn(Cc3cccc(C(F)(F)F)c3)c3c(F)cccc23)CC1)[C@](O)(Cn1cncn1)c1ccc(F)cc1F,resazurin,MIC80,ATCC 64548,0.125 µg/mL
COc1ccccc1/C=C1\CSc2ccc(Cl)cc2C1=O,,MIC,,12.5 µg/mL
C[C@@H](N1CCN(Cc2c[nH]c3ccccc23)CC1)[C@](O)(Cn1cncn1)c1ccc(F)cc1F,resazurin,MIC80,ATCC MYA-1003,128 µg/mL
Cc1ccc(C(Cn2ccnc2)OCc2ccc(C(C)(C)C)cc2)cc1,,MIC,CA12,>128 µg/mL
Cc1c(O)cccc1C(=O)N[C@@H](CSc1ccccc1)[C@H](O)CN1C[C@H]2CCCC[C@H]2C[C@H]1C(=O)NC(C)(C)C,,MIC,I52,>64 µg/mL
CCCCCCCOc1ccc(N2CCN(c3ccc(C(=O)N[C@H]4CCCNC(=O)[C@@H]5C[C@H](N)CN5C(=O)[C@H]([C@@H](C)O)NC(=O)[C@H](Cc5ccc(CO)cc5)NC(=O)[C@@H]5CCCN5C(=O)[C@H](C(C)O)NC4=O)cc3)CC2)cc1,,MIC,ATCC 38247,12.5 µg/mL
Cc1ccc(C(Cn2ccnc2)OC/C=C/c2ccccc2)cc1,,MIC,PR1,128 µg/mL
C[C@H]1[C@H](O)[C@@H](C)/C=C/C=C/C=C/C=C/C=C/C=C/C=C/[C@H](O[C@@H]2O[C@H](C)[C@@H](O)[C@H](N)[C@@H]2O)C[C@@H]2O[C@](O)(C[C@@H](O)C[C@@H](O)CC[C@H](O)[C@@H](O)C[C@@H](O)CC(=O)O[C@H]1C)C[C@H](O)[C@H]2C(=O)O,,MIC,B59630,0.125 µg/mL
c1ccc(C(c2ccc3ccccc3c2)n2ccnc2)cc1,,Mean MIC,23 strains,4.6 µg/mL
Clc1ccc(CO/N=C2/c3ccccc3OCC2n2cncn2)c(Cl)c1,,MFC,ATCC 10231,>64 µg/mL
Cc1ccc(C(Cn2ccnc2)OCc2ccc(-c3ccccc3)cc2)cc1,,MIC,CA2,64 µg/mL
Clc1ccc(CO/N=C2/c3ccccc3OCC2n2cnnc2)cc1,,MFC,ATCC 10231,>64 µg/mL
C[C@H]1[C@H](O)[C@@H](C)/C=C/C=C/C=C/C=C/C=C/C=C/C=C/[C@H](O[C@@H]2O[C@H](C)[C@@H](O)[C@H](N)[C@@H]2O)C[C@@H]2O[C@](O)(C[C@@H](O)C[C@@H](O)CC[C@H](O)[C@@H](O)C[C@@H](O)CC(=O)O[C@H]1C)C[C@H](O)[C@H]2C(=O)O,,MFC,ATCC 90028,5 µg/mL
COc1ccc(/C=C2\COc3ccc(-c4ccccc4)cc3C2=O)cc1OC,,MIC,,50 µg/mL
c1ccc(C(c2cccc3ccccc23)n2ccnc2)cc1,,Mean MIC,23 strains,14.8 µg/mL
[2H]c1ccc(COC[C@@H]2NC(=O)[C@@H]3C[C@@H](O)CN3C(=O)[C@H]([C@@H](C)O)NC(=O)[C@@H](NC(=O)c3ccc(-c4ccc(-c5ccc(OCCCCC)cc5)cc4)cc3)CCCNC(=O)[C@@H]3C[C@H](N)CN3C(=O)[C@H]([C@@H](C)O)NC2=O)cc1,,MIC,ATCC 38247,25 µg/mL
CCCCCCCCCCCn1cc[n+](COCCCCOC[n+]2ccn(CCCCCCCCCCC)c2)c1,agar diffusion,MIC100,ATCC 90028,8 µM
C[C@@H](N1CCN(Cc2cn(-c3ccc(F)cc3)c3ccccc23)CC1)[C@](O)(Cn1cncn1)c1ccc(F)cc1F,resazurin,MIC80,ATCC 64548,0.125 µg/mL
COc1ccc(/C=C2\COc3ccccc3C2=O)cc1OC,,MIC,,50 µg/mL
CCCCCCCCCCCCCCCCn1cc[n+](COCCCCCCOC[n+]2ccn(CCCCCCCCCCCCCCCC)c2)c1,agar diffusion,MIC100,ATCC 90028,100 µM
Clc1ccc2c(c1)OCC(n1cnnc1)/C2=N\OCc1ccccc1,,MIC,ATCC 10231,64 µg/mL
CCCCCCCCn1cc[n+](COCCOC[n+]2ccn(CCCCCCCC)c2)c1,agar diffusion,MIC100,ATCC 90028,5 µM
O=C(Nc1nc2ccc(NC(=O)[C@@H]3CCC[C@H](NCc4ccc5ccccc5c4)C3)cc2s1)C1CCCC1,,MIC,IFM 5728,0.78 µM
Clc1ccc(C(Cn2ccnc2)OC/C=C/c2ccccc2)cc1,,MIC,CA7,128 µg/mL
COc1ccc2c(c1)C(=O)/C(=C/c1ccc(OC)c(OC)c1)CO2,,MIC,,25 µg/mL
c1ccc(-c2ccc(COC(Cn3ccnc3)c3ccccc3)cc2)cc1,,MIC,CA2,128 µg/mL
CC(=O)OCC1C=C(c2ccc(Br)cc2)C(=O)O1,,MIC90,9 isolates fluconazole-resistant,2 µg/mL
O=C1/C(=C/c2ccc(O)cc2)COc2ccccc21,,MIC,,12.5 µg/mL
Clc1ccc(C(c2cccc3ccccc23)n2ccnc2)cc1,,Mean MIC,23 strains,6.17 µg/mL
C[C@@H](N1CCN(Cc2cn(Cc3ccc(Cl)cc3Cl)c3ccc(C#N)cc23)CC1)[C@](O)(Cn1cncn1)c1ccc(F)cc1F,resazurin,MIC80,ATCC 64548,0.25 µg/mL
CC(C)(C)c1ccc(COC(Cn2ccnc2)c2ccc(Cl)cc2)cc1,,MIC,CDCB385,>128 µg/mL
Cc1ccc(C(c2ccc3ccccc3c2)n2ccnc2)cc1,,Mean MIC,23 strains,5.14 µg/mL
CCOc1cc2c(cc1F)n([O-])c(C)c(Cl)[n+]2=O,,MIC,Clinical isolate 19,15.6 µg/mL
c1ccc(C(Cn2ccnc2)OCc2cccc3ccccc23)cc1,,MIC,Y0109,128 µg/mL
CCCCCCCCOc1ccc(N2CCN(c3ccc(C(=O)N[C@H]4CCCNC(=O)[C@@H]5C[C@H](N=C(N)N)CN5C(=O)[C@H](CCN)NC(=O)[C@H](CCc5ccc(O)cc5)NC(=O)[C@@H]5C[C@@H](O)CN5C(=O)[C@H]([C@@H](C)O)NC4=O)cc3)CC2)cc1,,MIC,ATCC 62376,0.78 µg/mL
C=CCc1ccc(OC)c(OC)c1,turbidity,MIC90,3070,345 µg/mL
CC(/C=C/C=C(\C)C(O)C(C)C(=O)O[C@H]1C[C@@H](C)C=C2C=C[C@@](C)(O)[C@](C)(C(=O)CCO)[C@H]21)=C\C=C\C(=O)O,,MIC,CCH442,50 µg/mL
C[C@@H](N1CCN(Cc2cn(Cc3ccc(Cl)cc3)c3c(F)cccc23)CC1)[C@](O)(Cn1cncn1)c1ccc(F)cc1F,resazurin,MIC80,ATCC 90028,0.125 µg/mL
COc1ccc(/C=C2\CSc3ccccc3C2=O)cc1,,MIC,,6 µg/mL

A second listing of 6 rows from above:

structure | read by | measure | strain or isolate | value
c1ccc(CO/N=C2/c3ccccc3OCC2n2cncn2)cc1 |  | MIC | ATCC 10231 | 64 µg/mL
c1ccc(C(c2ccc3ccccc3c2)n2ccnc2)cc1 |  | Mean MIC | 23 strains | 4.6 µg/mL
COc1ccc(/C=C2\COc3ccccc3C2=O)cc1OC |  | MIC |  | 50 µg/mL
C[C@H]1[C@H](O)[C@@H](C)/C=C/C=C/C=C/C=C/C=C/C=C/C=C/[C@H](O[C@@H]2O[C@H](C)[C@@H](O)[C@H](N)[C@@H]2O)C[C@@H]2O[C@](O)(C[C@@H](O)C[C@@H](O)CC[C@H](O)[C@@H](O)C[C@@H](O)CC(=O)O[C@H]1C)C[C@H](O)[C@H]2C(=O)O |  | MIC50 | 16 isolates fluconazole-susceptible | 0.125 µg/mL
C[C@H]1[C@H](O)[C@@H](C)/C=C/C=C/C=C/C=C/C=C/C=C/C=C/[C@H](O[C@@H]2O[C@H](C)[C@@H](O)[C@H](N)[C@@H]2O)C[C@@H]2O[C@](O)(C[C@@H](O)C[C@@H](O)CC[C@H](O)[C@@H](O)C[C@@H](O)CC(=O)O[C@H]1C)C[C@H](O)[C@H]2C(=O)O |  | MIC | B59630 | 0.125 µg/mL
CCOc1cc2c(cc1F)n([O-])c(C)c(Cl)[n+]2=O |  | MIC | Clinical isolate 19 | 15.6 µg/mL